# Source: PubChem BioAssay AID720579 (National Center for Advancing Translational Sciences (NCATS), 2013)
# The list shows a part of the results, in another mix than the full data. Inconclusive results are not listed. Calls of active or inactive are those of the source. Calls follow the shape of the full dose curve; tested in A549 cells.
# Test: qHTS for Stage-Specific Inhibitors of Vaccinia Orthopoxvirus: mCherry Reporter Primary qHTS; also: nearly all actives have a fitted effect of over 35% in size
# Settings: Vaccinia virus mCherry reporter infection, fluorescence
# Potency is read from the fitted curve at half-maximal effect.
row,SMILES,Potency
1,CC1CCOC(=O)C=CC=CC(=O)OC2CC3OC4C5OC5(C)C(O)CC4(COC(=O)C1O)C2(C)C31CO1 (configuration not stated),active: 282 nM
2,O=[N+]([O-])c1cc([N+](=O)[O-])c(-c2cnn(-c3ccccc3)c2)c([N+](=O)[O-])c1,active: 891 nM
